Data published in PMC12678819, “Targeting bacterial kinases as a strategy to counteract antibiotic resistance” (2025).

Chains of the proteins cited; added tags and fusions are not shown. Residues count along the entry.
UniProt O68183, 1-301: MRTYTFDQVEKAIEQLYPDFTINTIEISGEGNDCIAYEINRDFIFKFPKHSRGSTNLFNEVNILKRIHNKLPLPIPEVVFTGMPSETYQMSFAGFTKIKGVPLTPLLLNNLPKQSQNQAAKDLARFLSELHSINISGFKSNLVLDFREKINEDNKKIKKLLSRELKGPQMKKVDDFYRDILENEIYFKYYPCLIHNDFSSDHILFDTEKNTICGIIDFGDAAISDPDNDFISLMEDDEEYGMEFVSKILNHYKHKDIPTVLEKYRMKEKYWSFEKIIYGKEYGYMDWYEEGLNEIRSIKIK

Key:
[1] = system: Pseudomonas aeruginosa C0214; experiment: Bacterial growth / checkerboard assay with kanamycin A; conditions: for growth curve reading: panel C
APH(2”)-IVa [2] = molecular target: T1, APH(2”)-IVa (Enterococcus casseliflavus, UniProt O68183); experiment: Thermal shift assay; conditions: 500 µM compound
APH(2”)-IVa [3] = molecular target: T1, APH(2”)-IVa; experiment: Pyruvate Kinase-Lactate Dehydrogenase-coupled enzyme assay

In the case of `Cc1cc(-c2c(Cl)cnc3[nH]ccc23)[nH]n1`, the growth curve reading ([1]; Kanamycin A 16 µg·mL-1, [10] 125 µM, 10 h) is reported as 0.2374, the growth curve reading ([1]; Kanamycin A 16 µg·mL-1, [10] 125 µM, 11 h) is reported as 0.2715 and the growth curve reading ([1]; Kanamycin A 16 µg·mL-1, [10] 125 µM, 12 h) is reported as 0.2932. For the same molecule, the growth curve reading ([1]; Kanamycin A 16 µg·mL-1, [10] 125 µM, 13 h) was 0.2969, the growth curve reading ([1]; Kanamycin A 16 µg·mL-1, [10] 125 µM, 14 h) was 0.2958 and the growth curve reading ([1]; Kanamycin A 16 µg·mL-1, [10] 125 µM, 15 h) was 0.2933. It also gave a growth curve reading ([1]; Kanamycin A 16 µg·mL-1, [10] 125 µM, 16 h) of 0.2937, a growth curve reading ([1]; Kanamycin A 16 µg·mL-1, [10] 125 µM, 17 h) of 0.2921 and a growth curve reading ([1]; Kanamycin A 16 µg·mL-1, [10] 125 µM, 18 h) of 0.2906. It also gave a growth curve reading ([1]; Kanamycin A 16 µg·mL-1, [10] 125 µM, 19 h) of 0.2898, a growth curve reading ([1]; Kanamycin A 16 µg·mL-1, [10] 125 µM, 20 h) of 0.2900 and a growth curve reading ([1]; Kanamycin A 16 µg·mL-1, [10] 125 µM, 21 h) of 0.2904. It also gave a growth curve reading ([1]; Kanamycin A 16 µg·mL-1, [10] 125 µM, 22 h) of 0.2888, a growth curve reading ([1]; Kanamycin A 16 µg·mL-1, [10] 125 µM, 23 h) of 0.2892 and a growth curve reading ([1]; Kanamycin A 16 µg·mL-1, [10] 125 µM, 24 h) of 0.2965. It also gave a growth curve reading ([1]; Kanamycin A 16 µg·mL-1, [10] 250 µM, 8 h) of 0.1704, a growth curve reading ([1]; Kanamycin A 16 µg·mL-1, [10] 250 µM, 9 h) of 0.2121 and a growth curve reading ([1]; Kanamycin A 16 µg·mL-1, [10] 250 µM, 10 h) of 0.2517. It also gave a growth curve reading ([1]; Kanamycin A 16 µg·mL-1, [10] 250 µM, 11 h) of 0.2738, a growth curve reading ([1]; Kanamycin A 16 µg·mL-1, [10] 250 µM, 12 h) of 0.2998 and a growth curve reading ([1]; Kanamycin A 16 µg·mL-1, [10] 250 µM, 13 h) of 0.3126. The growth curve reading ([1]; Kanamycin A 16 µg·mL-1, [10] 250 µM, 14 h) was 0.3130, the growth curve reading ([1]; Kanamycin A 16 µg·mL-1, [10] 250 µM, 15 h) was 0.3098 and the growth curve reading ([1]; Kanamycin A 16 µg·mL-1, [10] 250 µM, 16 h) was 0.3071. The growth curve reading ([1]; Kanamycin A 16 µg·mL-1, [10] 250 µM, 17 h) was 0.3057, the growth curve reading ([1]; Kanamycin A 16 µg·mL-1, [10] 250 µM, 18 h) was 0.2992 and the growth curve reading ([1]; Kanamycin A 16 µg·mL-1, [10] 250 µM, 19 h) was 0.3044. For the same molecule, the growth curve reading ([1]; Kanamycin A 16 µg·mL-1, [10] 250 µM, 20 h) was 0.3052, the growth curve reading ([1]; Kanamycin A 16 µg·mL-1, [10] 250 µM, 21 h) was 0.3016 and the growth curve reading ([1]; Kanamycin A 16 µg·mL-1, [10] 250 µM, 22 h) was 0.3045. It also gave a growth curve reading ([1]; Kanamycin A 16 µg·mL-1, [10] 250 µM, 23 h) of 0.3079, a growth curve reading ([1]; Kanamycin A 16 µg·mL-1, [10] 250 µM, 24 h) of 0.3123 and a growth curve reading ([1]; Kanamycin A 16 µg·mL-1, [10] 500 µM, 8 h) of 0.1687. The growth curve reading ([1]; Kanamycin A 16 µg·mL-1, [10] 500 µM, 9 h) was 0.1992, the growth curve reading ([1]; Kanamycin A 16 µg·mL-1, [10] 500 µM, 10 h) was 0.2224 and the growth curve reading ([1]; Kanamycin A 16 µg·mL-1, [10] 500 µM, 11 h) was 0.2556. It also gave a growth curve reading ([1]; Kanamycin A 16 µg·mL-1, [10] 500 µM, 12 h) of 0.2817, a growth curve reading ([1]; Kanamycin A 16 µg·mL-1, [10] 500 µM, 13 h) of 0.2938 and a growth curve reading ([1]; Kanamycin A 16 µg·mL-1, [10] 500 µM, 14 h) of 0.2963. It also gave a growth curve reading ([1]; Kanamycin A 16 µg·mL-1, [10] 500 µM, 15 h) of 0.2950, a growth curve reading ([1]; Kanamycin A 16 µg·mL-1, [10] 500 µM, 16 h) of 0.2951 and a growth curve reading ([1]; Kanamycin A 16 µg·mL-1, [10] 500 µM, 17 h) of 0.2925. It also gave a growth curve reading ([1]; Kanamycin A 16 µg·mL-1, [10] 500 µM, 18 h) of 0.2912, a growth curve reading ([1]; Kanamycin A 16 µg·mL-1, [10] 500 µM, 19 h) of 0.2915 and a growth curve reading ([1]; Kanamycin A 16 µg·mL-1, [10] 500 µM, 20 h) of 0.2905. It also gave a growth curve reading ([1]; Kanamycin A 16 µg·mL-1, [10] 500 µM, 21 h) of 0.2887, a growth curve reading ([1]; Kanamycin A 16 µg·mL-1, [10] 500 µM, 22 h) of 0.2856 and a growth curve reading ([1]; Kanamycin A 16 µg·mL-1, [10] 500 µM, 23 h) of 0.2837. It also gave a growth curve reading ([1]; Kanamycin A 16 µg·mL-1, [10] 500 µM, 24 h) of 0.2825, a growth curve reading ([1]; Kanamycin A 32 µg·mL-1, [10] 125 µM, 8 h) of 0.0004 and a growth curve reading ([1]; Kanamycin A 32 µg·mL-1, [10] 125 µM, 9 h) of 0.0011. For the same molecule, the growth curve reading ([1]; Kanamycin A 32 µg·mL-1, [10] 125 µM, 10 h) was 0.0035, the growth curve reading ([1]; Kanamycin A 32 µg·mL-1, [10] 125 µM, 11 h) was 0.0069 and the growth curve reading ([1]; Kanamycin A 32 µg·mL-1, [10] 125 µM, 12 h) was 0.0142. It also gave a growth curve reading ([1]; Kanamycin A 32 µg·mL-1, [10] 125 µM, 13 h) of 0.0274, a growth curve reading ([1]; Kanamycin A 32 µg·mL-1, [10] 125 µM, 14 h) of 0.0533 and a growth curve reading ([1]; Kanamycin A 32 µg·mL-1, [10] 125 µM, 15 h) of 0.0888. The growth curve reading ([1]; Kanamycin A 32 µg·mL-1, [10] 125 µM, 16 h) was 0.1283, the growth curve reading ([1]; Kanamycin A 32 µg·mL-1, [10] 125 µM, 17 h) was 0.1706 and the growth curve reading ([1]; Kanamycin A 32 µg·mL-1, [10] 125 µM, 18 h) was 0.2164. For the same molecule, the growth curve reading ([1]; Kanamycin A 32 µg·mL-1, [10] 125 µM, 19 h) was 0.2596, the growth curve reading ([1]; Kanamycin A 32 µg·mL-1, [10] 125 µM, 20 h) was 0.2954 and the growth curve reading ([1]; Kanamycin A 32 µg·mL-1, [10] 125 µM, 21 h) was 0.3102. It also gave a growth curve reading ([1]; Kanamycin A 32 µg·mL-1, [10] 125 µM, 22 h) of 0.3168, a growth curve reading ([1]; Kanamycin A 32 µg·mL-1, [10] 125 µM, 23 h) of 0.3188 and a growth curve reading ([1]; Kanamycin A 32 µg·mL-1, [10] 125 µM, 24 h) of 0.3177. The “effect of added inhibitor on kanamycin MIC” value ([1]; P. aeruginosa C0214, 125-500 µM inhibitor) was “did not change the MIC value”, the OD600nm ([1]; inhibitor 125 µM, KanaA 0 µg.mL-1) was 0.3108 and the OD600nm ([1]; inhibitor 125 µM, KanaA 8 µg.mL-1) was 0.3030. The OD600nm ([1]; inhibitor 125 µM, KanaA 16 µg.mL-1) was 0.2958, the OD600nm ([1]; inhibitor 125 µM, KanaA 32 µg.mL-1) was 0.2009 and the OD600nm ([1]; inhibitor 125 µM, KanaA 64 µg.mL-1) was 0.00025. The OD600nm ([1]; inhibitor 125 µM, KanaA 128 µg.mL-1) was -5e-5, the OD600nm ([1]; inhibitor 125 µM, KanaA 256 µg.mL-1) was -0.0007 and the OD600nm ([1]; inhibitor 125 µM, KanaA 512 µg.mL-1) was 0.0005. It also gave an OD600nm ([1]; inhibitor 125 µM, KanaA 1024 µg.mL-1) of -0.0009, an OD600nm ([1]; inhibitor 125 µM, KanaA 2048 µg.mL-1) of -0.0004 and an OD600nm ([1]; inhibitor 125 µM, KanaA 4096 µg.mL-1) of 0.0005. It also gave an OD600nm ([1]; inhibitor 250 µM, KanaA 0 µg.mL-1) of 0.3043, an OD600nm ([1]; inhibitor 250 µM, KanaA 8 µg.mL-1) of 0.2952 and an OD600nm ([1]; inhibitor 250 µM, KanaA 16 µg.mL-1) of 0.2944. The OD600nm ([1]; inhibitor 250 µM, KanaA 32 µg.mL-1) was 0.1366, the OD600nm ([1]; inhibitor 250 µM, KanaA 64 µg.mL-1) was -0.0017 and the OD600nm ([1]; inhibitor 250 µM, KanaA 128 µg.mL-1) was -0.0004. For the same molecule, the OD600nm ([1]; inhibitor 250 µM, KanaA 256 µg.mL-1) was -0.0010, the OD600nm ([1]; inhibitor 250 µM, KanaA 512 µg.mL-1) was -0.0009 and the OD600nm ([1]; inhibitor 250 µM, KanaA 1024 µg.mL-1) was -0.0027. The OD600nm ([1]; inhibitor 250 µM, KanaA 2048 µg.mL-1) was -0.00055, the OD600nm ([1]; inhibitor 250 µM, KanaA 4096 µg.mL-1) was -0.00015 and the OD600nm ([1]; inhibitor 500 µM, KanaA 0 µg.mL-1) was 0.2873. It also gave an OD600nm ([1]; inhibitor 500 µM, KanaA 8 µg.mL-1) of 0.2780, an OD600nm ([1]; inhibitor 500 µM, KanaA 16 µg.mL-1) of 0.2409 and an OD600nm ([1]; inhibitor 500 µM, KanaA 32 µg.mL-1) of 0.1090. For the same molecule, the OD600nm ([1]; inhibitor 500 µM, KanaA 64 µg.mL-1) was -0.0012, the OD600nm ([1]; inhibitor 500 µM, KanaA 128 µg.mL-1) was -0.0019 and the OD600nm ([1]; inhibitor 500 µM, KanaA 256 µg.mL-1) was -0.0015. The OD600nm ([1]; inhibitor 500 µM, KanaA 512 µg.mL-1) was -0.0019, the OD600nm ([1]; inhibitor 500 µM, KanaA 1024 µg.mL-1) was -0.00095 and the OD600nm ([1]; inhibitor 500 µM, KanaA 2048 µg.mL-1) was -0.0023. The OD600nm ([1]; inhibitor 500 µM, KanaA 4096 µg.mL-1) was -5e-5, the “effect of compound alone on bacterial growth” value ([1]; no kanamycin) was “did not affect bacterial growth” and the “ΔTm (°C) at 500 µM” value (APH(2”)-IVa [2]) was 2.27 °C. The “Inhibition (%) at 10 µM” value (APH(2”)-IVa [3]; 10 µM compound) was 89% and the Ki (APH(2”)-IVa [3]; 25°C, competitive vs MgATP, 100 µM kanamycin A) was 360 nM.
